Measured values from several laboratories, pooled; numbers as filed in NIAID ChemDB.

All rows: tests in culture; species: Mycobacterium smegmatis; read by: resazurin; endpoint: MIC

Neighbouring rows are from separate reports. An empty or dashed field is not shown.

structure | strain or isolate | value
COc1ccc(/C=N/NC(=O)c2cnc3cccc(C(F)(F)F)c3c2NC(CSc2ccccc2)CC(=O)N(C)C)cc1O | ATCC 19420 | >100 µg/mL
C=C1C(=O)[C@@]23C(=O)O[C@H]4CCC(C)(C)[C@H]5[C@H](O)OC[C@@]45[C@@H]2CC[C@@H]1[C@H]3OC(=O)c1ccccc1 | ATCC 19420 | 4 µg/mL
CN(C)C(=O)CC(CSc1ccccc1)Nc1c(C(=O)N/N=C/c2ccccc2F)cnc2cc(F)ccc12 | ATCC 19420 | 10 µg/mL
CC(=O)Oc1ccccc1C(=O)Nc1cnccn1 |  | ≥500 µg/mL
CN(C)C(=O)CC(CSc1ccccc1)Nc1c(C(=O)N/N=C/c2cc(F)ccc2O)cnc2cc(F)ccc12 | ATCC 19420 | >100 µg/mL
C=C1C(=O)[C@@]23C(=O)O[C@H]4CCC(C)(C)[C@H]5[C@H](O)OC[C@@]45[C@@H]2CC[C@@H]1[C@H]3OC(=O)c1cc2ccccc2[nH]1 | ATCC 19420 | 8 µg/mL
CC[C@H](C)[C@@H](NC(=O)[C@@H](CCC(=O)O)NC(=O)[C@H](Cc1cnc[nH]1)NC(=O)[C@H](C)NC(=O)[C@H](N)Cc1ccccc1)C(=O)N[C@H]1CCCCNC1=O |  | >50 µg/mL
[C-]#[N+][C@@]12[C@@](C)(C=C)[C@H](Cl)C[C@@H]3C(C)(C)c4cccc5[nH]c(c(c45)[C@]31O)C(C)(C)[C@]21CO1 |  | 23.4 µM
CCCCCCCC/C=N/NC(=O)c1cnc2cccc(C(F)(F)F)c2c1NC(CSc1ccccc1)CC(=O)N(C)C | ATCC 19420 | 10 µg/mL
C=C1C(=O)[C@@]23C(=O)O[C@H]4CCC(C)(C)[C@H]5C(=O)OC[C@@]45[C@@H]2CC[C@@H]1[C@H]3OC(=O)c1cnccn1 | ATCC 19420 | >64 µg/mL
CCCCCCCC/C=N/NC(=O)c1cnc2cc(F)ccc2c1NC(CSc1ccccc1)CC(=O)N(C)C | ATCC 19420 | 10 µg/mL
Cc1ccc(C2=NNC(c3cn(-c4ccc(Cl)cc4)nc3-c3ccccc3)C2)o1 |  | 250 µg/mL
COc1ccc(/C=N/NC(=O)c2cnc3cccc(C(F)(F)F)c3c2NC(CSc2ccccc2)CC(=O)N(C)C)c(F)c1 | ATCC 19420 | >100 µg/mL
Cc1ccc(-c2nn(-c3ccc(Cl)cc3)cc2C2CC(c3ccc(C)o3)=NN2)cc1 |  | 62.5 µg/mL
CN(C)C(=O)CC(CSc1ccccc1)Nc1c(C(=O)N/N=C/c2cc(F)ccc2O)cnc2cccc(C(F)(F)F)c12 | ATCC 19420 | >100 µg/mL
Cc1ccc(C2=NNC(c3cn(-c4ccc(Cl)cc4)nc3-c3cccs3)C2)o1 |  | 125 µg/mL
N=C(N)N1N=C(/C=C/c2ccccc2)CC1c1ccccc1 |  | ≤1.07 µM
Clc1ccc(-n2cc(C3CC(c4ccc5c(c4)CCO5)=NN3)c(-c3cccs3)n2)cc1 |  | 62.5 µg/mL
C[C@H]1[C@H](C)CC[C@]2(C(=O)O)CC[C@]3(C)C(CC[C@@H]4[C@@]5(C)C[C@H](O)CC(C)(C)[C@@H]5CC[C@]43C)[C@H]12 |  | >200 µg/mL
C=C1C(=O)[C@@]23C(=O)O[C@H]4CCC(C)(C)[C@H]5[C@H](O)OC[C@@]45[C@@H]2CC[C@@H]1[C@H]3OC(=O)c1cnccn1 | ATCC 19420 | >64 µg/mL
Clc1ccc(-n2cc(C3CC(c4ccc(-c5ccccc5)cc4)=NN3)c(-c3ccccc3)n2)cc1 |  | 125 µg/mL
FC(F)(F)c1cc(-c2ccccc2)nc(N2N=C(/C=C/c3ccc(Cl)cc3)CC2c2ccc(Cl)cc2)n1 |  | >20.6 µM
C=C1C(=O)[C@@]23C(=O)O[C@H]4CCC(C)(C)[C@H]5C(=O)OC[C@@]45[C@@H]2CC[C@@H]1[C@H]3OC(=O)c1cc2ccccc2[nH]1 | ATCC 19420 | 8 µg/mL

For reference, 3 entries again:

structure,strain or isolate,value
C=C1C(=O)[C@@]23C(=O)O[C@H]4CCC(C)(C)[C@H]5[C@H](O)OC[C@@]45[C@@H]2CC[C@@H]1[C@H]3OC(=O)c1cnccn1,ATCC 19420,>64 µg/mL
CCCCCCCC/C=N/NC(=O)c1cnc2cccc(C(F)(F)F)c2c1NC(CSc1ccccc1)CC(=O)N(C)C,ATCC 19420,10 µg/mL
COc1ccc(/C=N/NC(=O)c2cnc3cccc(C(F)(F)F)c3c2NC(CSc2ccccc2)CC(=O)N(C)C)c(F)c1,ATCC 19420,>100 µg/mL